What is called IC50 is the concentration needed to halve the response being measured.

Protein sequences, listed by entry. Tags and fused reporters are not part of them. Residues count along the entry.
UniProt P54634, 1190-1699 limits assumed: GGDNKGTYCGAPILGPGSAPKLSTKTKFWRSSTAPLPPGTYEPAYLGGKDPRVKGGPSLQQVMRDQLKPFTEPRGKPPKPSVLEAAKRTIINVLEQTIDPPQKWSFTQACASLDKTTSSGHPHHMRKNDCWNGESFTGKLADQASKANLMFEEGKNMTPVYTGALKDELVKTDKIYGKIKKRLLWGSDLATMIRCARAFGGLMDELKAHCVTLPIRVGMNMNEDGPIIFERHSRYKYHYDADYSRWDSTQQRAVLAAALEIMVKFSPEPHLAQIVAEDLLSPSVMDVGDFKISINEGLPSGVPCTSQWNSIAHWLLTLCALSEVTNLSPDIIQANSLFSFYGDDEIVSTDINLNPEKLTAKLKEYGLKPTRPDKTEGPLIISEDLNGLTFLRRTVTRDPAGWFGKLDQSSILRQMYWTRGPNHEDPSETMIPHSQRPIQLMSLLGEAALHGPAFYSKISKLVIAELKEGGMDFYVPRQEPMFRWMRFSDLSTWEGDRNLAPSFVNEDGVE

Molecules are shown by their SMILES.

This experiment has as its target Norovirus polymerase (NoVpol, genotype II) (Lordsdale virus, UniProt P54634). Conditions: 50 nM recombinant enzyme, 2.5 hours at 30° C.

Turning to `[N-]=[N+]=NC[C@]1(COP(=O)(O)OP(=O)(O)OP(=O)(O)O)O[C@@H](n2cnc3c(=O)[nH]c(N)nc32)[C@H](F)[C@@H]1O`, the concentration for half-maximal inhibition (IC50) was in the range of 1 to 10 µM.

Take `C[C@@]1(O)[C@H](O)[C@@](CCl)(COP(=O)(O)OP(=O)(O)OP(=O)(O)O)O[C@H]1n1ccc(N)nc1=O`: the IC50 is 1 to 10 µM.

Source of the values: patent US9815864B2, “Substituted nucleosides, nucleotides and analogs thereof” (Alios BioPharma, Inc., priority 2013, dated 2017).
